Compound potency records, mixed from different reports. Data source: NIAID ChemDB in PubChem.

Shared fields: tests in culture; organism: HIV-1; endpoint: EC50

ECn: concentration that inhibits the pathogen or its effect by n%. An empty or dashed field is not shown. Neighbouring rows are from separate reports. a–b is a range or a potency band.

structure | strain | cell line | changes | result
O=C1N(Cc2ccc3[nH]nc(NCC4CC4)c3c2)[C@H](Cc2ccccc2)[C@H](O)[C@@H](O)[C@@H](Cc2ccccc2)N1Cc1ccc2[nH]nc(NCC3CC3)c2c1 | RF | MT-2 |  | <0.038 µM
C#Cc1cnc(OC(=O)c2ccccc2)nc1OC(=O)c1ccccc1 | LAI | PBMC |  | 1.3 µM
COc1cc2ccnc3c2c(c1OC(=O)c1ccc(C(C)(C)C)cc1)N(C)C=C3 |  |  |  | 3.7 µM
Nc1nc2c(ncn2OC2COC(CO)O2)c(=O)[nH]1 |  | MT-4 |  | >100 µg/mL
Cc1cn([C@@H]2O[C@H](CO)[C@H](O)[C@H]2F)c(=O)[nH]c1=O |  | MT-4 |  | >500 µM
Nc1nc2c(ncn2[C@@H]2O[C@H](CO)C(O)(C(F)(F)F)[C@H]2O)c(=O)[nH]1 |  | MT-4 |  | >100 µM
Nc1ncnc2c1ncn2[C@@H]1OC[C@H](OCCP(=O)(O)O)[C@H]1O |  | MT-4 |  | >250 µM
Nc1ncnc2c1ncn2O[C@H]1CO[C@@H](CO)O1 |  | MT-4 |  | >100 µg/mL
CC(C)=NOCCOCn1cnc2c(=O)[nH]c(N)nc21 | IIIB | C8166 |  | >50 µM
Cc1c(Sc2cc(Cl)cc(Cl)c2)n(COCCO)c(=O)[nH]c1=O |  | MT-4 |  | 1.8 µM
CC/C(C)=N/OCCOCn1cnc2c(=O)[nH]c(N)nc21 | IIIB | C8166 |  | >50 µM
CC(C)(C)C(=O)SCCOP(=O)(OCCSC(=O)C(C)(C)C)OC[C@@H]1O[C@H](n2cc(Cl)c(N)nc2=O)C[C@H]1F | IIIB | CEM + CEM/O |  | >50 µM
CCc1c(Sc2ccccc2)n(COCc2ccccc2)c(=O)[nH]c1=O |  | MT-4 |  | 0.0025 µM
CCN(CC)C(=O)Oc1c(OC)cc2ccnc3c2c1N(C)C=C3 |  |  |  | 45.9 µM
CC/C=N/OCCOCn1cnc2c(=O)[nH]c(N)nc21 | IIIB | C8166 |  | >50 µM
C=Cn1cc(C(=O)O)c(=O)c2ccc(N3CCN(c4cccc(C(F)(F)F)c4)CC3)cc21 | IIIB | PBMC |  | 0.84 µM
O=C(NCc1ccc(F)cc1)c1nc(N2CCCCS2(=O)=O)c2cccnc2c1O | IIIB | MT-4 |  | 0.0087 µM
O=c1[nH]cnc2c1ncn2[C@H]1C[C@H](F)[C@@H](CO)O1 |  | MT-4 |  | 222 µM
Nc1n[nH]c2ccc(CN3C(=O)N(CC4CCC4)[C@H](Cc4ccccc4)[C@H](O)[C@@H](O)[C@H]3Cc3ccccc3)cc12 | RF | MT-2 |  | <0.018 µM
Nc1ccn([C@@H]2O[C@H](CO)[C@](O)(C(F)(F)F)[C@H]2O)c(=O)n1 |  | MT-4 |  | >100 µM
C#Cc1c[nH]c(=O)[nH]c1=O | LAI | PBMC |  | 37.7 µM
c1ccc(CNCc2ccc(CN3CCCNCCNCCCNCC3)cc2)nc1 | HE |  |  | 0.001–0.01 µg/mL
C=Cn1cc(C(=O)O)c(=O)c2cc(N)c(N3CCN(c4ccccn4)CC3)cc21 | IIIB | PBMC |  | 0.17 µM
COC[C@@H](c1ccc(C(F)(F)F)cc1)N1CCN(C2(C)CCN(C(=O)c3c(C)ncnc3C)CC2)C[C@@H]1C | S | PBMC | G514V V535M | 0.00084 µM
C#Cc1cnc(OC)nc1OC | LAI | PBMC |  | 65.2 µM
CCc1c(Sc2cc(C)cc(C)c2)n(COCc2ccccc2)c(=O)[nH]c1=O |  | MT-4 |  | 0.005 µM
COc1cc2ccnc3c2c(c1OC(=O)c1cccc(F)c1F)N(C)C=C3 |  |  |  | 37.7 µM
Nc1n[nH]c2ccc(CN3C(=O)N(CC4CC4)[C@H](Cc4ccccc4)[C@H](O)[C@@H](O)[C@H]3Cc3ccccc3)cc12 | RF | MT-2 |  | <0.114 µM
Nc1ccn([C@@H]2C[C@H](F)[C@H](CO)O2)c(=O)n1 | LAL | CEM + CEM-SS |  | 82 µM
Cc1cn([C@H]2C[C@@H](OCP(=O)(O)O)CO2)c(=O)[nH]c1=O |  | MT-4 |  | 6.59 µM
Nc1nc(=O)n([C@@H]2CC[C@H](CO)O2)cc1Cl | IIIB | CEM + CEM/O |  | >250 µM
Nc1ccn([C@@H]2O[C@H](CO)C=C2Cl)c(=O)n1 |  | MT-4 |  | >500 µM
Nc1ncnc2c1ncn2[C@H]1C=C[C@](OCP(=O)(O)O)(c2ccccc2)C1 |  |  |  | 28.3 µM
Cc1c(Sc2ccccc2)n(COCCN=[N+]=[N-])c(=O)[nH]c1=O |  | MT-4 |  | <5.7 µM
Nc1n[nH]c2ccc(CN3C(=O)N(Cc4ccc5[nH]nc(N)c5c4)[C@H](Cc4ccccc4)[C@H](O)[C@@H](O)[C@H]3Cc3ccccc3)cc12 | RF | MT-2 |  | <2.76 µM
COc1cc2ccnc3c2c(c1OC(=O)c1ccc(F)c(F)c1)N(C)C=C3 |  |  |  | 16.6 µM
Nn1ccnc1 | NL4-3 |  |  | 0.2–4 µg/mL
N#Cc1cc(Cl)cc(Oc2c(Br)ccc(CC(=O)Nc3ccc(S(N)(=O)=O)cc3Cl)c2F)c1 |  | MT-4 | E138K/Y181I | 0.002 µM
CCOP(=O)(CO[C@]1(c2ccccc2)C=C[C@H](n2cnc3c(N)ncnc32)C1)OCC |  |  |  | >100 µM
Cc1nnc(C(=O)NC(C)(C)c2nc(C(=O)NCc3ccc(F)cc3)c(O)c(=O)n2C)o1 | IIIB | MT-4 |  | 0.01 µM
COc1cc2ccnc3c2c(c1OC(=O)c1cc(F)ccc1F)N(C)C=C3 |  |  |  | 2.1 µM
O=c1[nH]cnc2c1ncn2O[C@@H]1CO[C@@H](CO)O1 |  | MT-4 |  | >100 µg/mL
CCc1c(Sc2ccccc2)n(COC2CCCCC2)c(=O)[nH]c1=O |  | MT-4 |  | 3.8 µM
COc1ccc2[nH]c(C(=O)NCc3ccc(Cl)c(Oc4cc(Cl)cc(C#N)c4)c3)cc2c1 | HXB2 | HeLa | V106A in RT | >1 µM
COc1ncnc2c1ncn2O[C@@H]1CS[C@@H](CO)O1 |  | MT-4 |  | >100 µg/mL

6 of the rows above, restated:

| structure | strain | cell line | changes | result |
|---|---|---|---|---|
| Nc1ccn([C@@H]2C[C@H](F)[C@H](CO)O2)c(=O)n1 | LAL | CEM + CEM-SS |  | 82 µM |
| Nn1ccnc1 | NL4-3 |  |  | 0.2–4 µg/mL |
| Cc1cn([C@@H]2O[C@H](CO)[C@H](O)[C@H]2F)c(=O)[nH]c1=O |  | MT-4 |  | >500 µM |
| Nc1nc2c(ncn2[C@@H]2O[C@H](CO)C(O)(C(F)(F)F)[C@H]2O)c(=O)[nH]1 |  | MT-4 |  | >100 µM |
| CCc1c(Sc2ccccc2)n(COC2CCCCC2)c(=O)[nH]c1=O |  | MT-4 |  | 3.8 µM |
| Cc1cn([C@H]2C[C@@H](OCP(=O)(O)O)CO2)c(=O)[nH]c1=O |  | MT-4 |  | 6.59 µM |